Test results taken from ChEMBL document CHEMBL1212803, “Resistance-associated mutations to etravirine (TMC-125) in antiretroviral-naïve patients infected with non-B HIV-1 subtypes” (2010).

Columns and labels:
[1] = system: Human immunodeficiency virus 1; assay: Antiviral activity against HIV-1 subtype CRF02_AG containing reverse transcriptase A98G/V35T, V60I, I135L, S162A, K173A, Q174K, D177E, I178M, T200A,Q207E, R211K, V245Q, D250E mutant relative to control; assay type: functional
[2] = system: Human immunodeficiency virus 1; assay: Antiviral activity against HIV-1 subtype CRF02_AG containing reverse transcriptase Y181C/V35T, V60I, I135V, S162A, K173T, Q174K, N175Y, D177E, T200A, Q207E, R211K, H221Y mutant relative to control; assay type: functional

`O=C1Nc2ccc(Cl)cc2[C@@](C#CC2CC2)(C(F)(F)F)O1` [EFAVIRENZ] was tested, and the “Ratio IC50” value [1] was 3.6 and the “Ratio IC50” value [2] was 9.9.
